Molecular target: H3K27me3 peptide
Experiment: ITC

Work on MBP-BP1^ΔIDR1 (domain or fragment) yielded a Kd of 15.6 µM.

— article PMC10926671, “Liquid–liquid phase separation of H3K27me3 reader BP1 regulates transcriptional repression” (2024)
